Protein sequences can lack the tags named with them.
Target: T1, His-RstA (Klebsiella pneumoniae ATCC43816) (UniProt A6T8N1)
T1 sequence (looked up): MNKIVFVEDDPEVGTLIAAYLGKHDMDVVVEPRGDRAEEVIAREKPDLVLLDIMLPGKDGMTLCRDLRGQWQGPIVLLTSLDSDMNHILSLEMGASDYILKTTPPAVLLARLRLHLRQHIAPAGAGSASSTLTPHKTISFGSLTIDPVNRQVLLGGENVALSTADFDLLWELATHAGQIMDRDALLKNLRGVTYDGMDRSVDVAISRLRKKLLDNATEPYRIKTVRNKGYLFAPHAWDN
Experiment: EMSA
Settings: dose-dependent; 100 ng DNA fragment with purified RstA in binding buffer (composition not given), 37 C, 30 min; PAGE, GelRed stain; recombinant protein; residues 1-239; protein details: His (pET28a); label: none (GelRed stain); probe letters rebuilt from the primers and the genome

GCGTGGCAAAAAGTGCGATTTAGATCACATTTTTATGGCGGTTTGATGGCGTAAACATGATCGTTTATCTATTTTTTAATTTAAAAACAATGGATTAATGATTTACTTCTGAAAGGGGGATCACATGGGCTGCCCTTGTTCAGGGAGAGGAATGCGCCTCATTCATGCTTTCATCATTCGCTGTGTGAATGGTTTGGTGCTGTTTTCACCACCGCAAAGGCAGATTCAGACTTATCGCGATGGCCTTCCGAGGGCTTTTTCTGCATGCTGTTGCGGTCACTTTCTCCCGCTCTGGCGTTAGGCTTGCTGCGCTGTAAACAACCACCCTCGCGTTTTCATCTATCAATGACTGTTTATTAATAGTCGATGGTTATCTGTTATATAACTTAATGAAACGTGAACAAATGTATATTTGTCGGCGAATAAATAGCATTCTTTGACGCCGATAGCACCAGCGAACTTATATTTTTAGGTTCGTTACCTGACGCCTTAAATATTGCGGCTCCCGGTCAGTCGAAGATTCTATTAGCAGTGGCATAAATCAGCATCGCCTGATGTTTCTGGTTCTATGCGAATTCACAGTGTGCTCATTGATTCGTAATTCACTCTGACAAGGAA (double strand) [mrkA promoter-proximal region]
binding result: binds

Reference: PMC12131781
